Data published in publication PMC7382501.

The chains behind the UniProt entries cited, without tags or fusion partners. Where a name states a change or a piece, a line headed by the entry shows the natural chain unless it says otherwise.
UniProt O05858: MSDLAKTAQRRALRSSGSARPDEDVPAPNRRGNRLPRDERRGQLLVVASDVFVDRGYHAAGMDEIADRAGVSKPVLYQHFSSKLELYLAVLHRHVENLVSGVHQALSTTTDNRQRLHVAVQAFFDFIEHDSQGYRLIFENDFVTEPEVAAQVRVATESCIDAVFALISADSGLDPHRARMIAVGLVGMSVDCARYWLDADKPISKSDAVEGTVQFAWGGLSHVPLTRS

Target: FasR wild-type (FasRwt) (Mycobacterium tuberculosis H37Rv) (UniProt O05858)
Experiment: EMSA
Details: no acyl-CoA, apparent KD; recombinant protein; residues 1-228; protein details: N-terminal His6 (pET28a, uncleaved); label: 5'-32P on N2_Fas1Mt-prom strand; probe letters rebuilt from the primers and the genome

**Q.** “CATAACGATTTGATAACAAAACTGCCTTGATCAGCGCAGTTATAGCTACTCCACCGTAACCACCTGCACGCAGGACGTTTGGTCAACACATACGCGCCGGCCGTCGAACCCGGCGTTACCCACGACACGGTTACCCGTACGTAGAACTCGCCAGTAACCGATCTGTGTAAACAAGGTGGACCGATCCTTATGAGACTCTTATAAGGCCGATGCAGCCCGTCGCGCTGCTCGACCCACGGGCCGGCCCACCGACAACACACCGGTCAGAGGATTTCGGCTGGGAGTCGGTGCGGAGTCGGGGATGCCCCGCACGGCAGCCTGGGCCGCTGTACGAACTGACACGTACCGATGCACATAGGGAGACATAGACCGTGACGATCCACGAGCACGACCGGGTG (double strand) [PfasMT promoter fragment (398 bp)]” was tested. Which Kd did it give?
**A.** Its Kd is 83 nM.
